Results of unrelated studies side by side (data: NIAID ChemDB).

Shared fields: whole-cell or culture tests; agent: Mycobacterium smegmatis; read-out: MIC

Lines come from different laboratories, so protocols vary. An empty or dashed field is not shown.

| compound | strain | method | value |
|---|---|---|---|
| CC(C)c1cnc(C(=O)/C=C/c2ccc(Br)cc2)cn1 | CCM | absorbance | >500 µg/mL |
| CCCCCCCCCCCCCCCC[N+](C)(C)CC | PSB51 LFR | - | 16 µg/mL |
| O=C(/C=C/c1ccc(Cl)cc1)c1cnccn1 | CCM | absorbance | 15.3 µg/mL |
| CCC[C@H](N)C(=O)N[C@H]1CCN(c2c(F)cn3c(=O)c(C(=O)O)cc(C4CC4)c3c2C)C1.Cl | ATCC114 | - | 0.78 µg/mL |
| CCn1cc(C(=O)O)c(=O)c2cc(F)c(N3CCNCC3)nc21 | ATCC 19420 | - | 1.6 µg/mL |
| O=C(/C=C/c1ccccc1F)c1cnccn1 | CCM | absorbance | 15.6 µg/mL |
| Cc1c(N2CC[C@H]([C@@H](C)N)C2)c(F)cn2c(=O)c(C(=O)O)cc(C3CC3)c12.Cl | ATCC114 | - | 0.2 µg/mL |
| C[C@H]1c2cccc(O)c2C(O)=C2C(=O)[C@]3(O)C(O)=C(C(N)=O)C(=O)[C@@H](N(C)C)[C@@H]3[C@@H](O)[C@@H]21 | A24001 | - | 0.06 µg/mL |
| N#CC(C#N)=NNc1cccc(Cl)c1 | PMN1 LFR | - | 30 µg/mL |
| Cc1c(N2C[C@@H]3C[C@H]2CN3)c(F)cn2c(=O)c(C(=O)O)cc(C3CC3)c12 | ATCC114 | - | 0.2 µg/mL |
| NC1CCN(c2c(F)cc3c(=O)c(C(=O)O)cn(C4CC4)c3c2F)C1 | ATCC 19420 | - | 0.06 µg/mL |
| CC(C)(C)c1cnc(C(=O)/C=C/c2ccc(Br)cc2)cn1 | CCM | absorbance | >250 µg/mL |
| Cc1c(N2C[C@@H]3CCC[C@@H](N)[C@H]3C2)c(F)cn2c(=O)c(C(=O)O)cc(C3CC3)c12.Cl | ATCC114 | - | 0.1 µg/mL |
| NC1CCN(c2c(F)cc3c(=O)c(C(=O)O)cn(-c4ccc(F)cc4F)c3c2F)C1 | ATCC 19420 | - | 0.5 µg/mL |
| Cc1c(N2CC[C@@H]([C@H](C)N)C2)c(F)cn2c(=O)c(C(=O)O)cc(C3CC3)c12.Cl | ATCC114 | - | 0.1 µg/mL |
| CC(C)(C)c1cnc(C(=O)/C=C/c2ccccc2Br)cn1 | CCM | absorbance | 62.5 µg/mL |
| Cc1c(N2CCC(C)(N)C2)c(F)cn2c(=O)c(C(=O)O)cc(C3CC3)c12.Cl | ATCC114 | - | 0.1 µg/mL |
| CCOc1c(N2CC(C)NC(C)C2)c(F)cc2c(=O)c(C(=O)O)cn(C3CC3)c12 | ATCC 19420 | - | 0.13 µg/mL |

2 of the rows above, restated:

compound | strain | method | value
Cc1c(N2CCC(C)(N)C2)c(F)cn2c(=O)c(C(=O)O)cc(C3CC3)c12.Cl | ATCC114 | - | 0.1 µg/mL
NC1CCN(c2c(F)cc3c(=O)c(C(=O)O)cn(-c4ccc(F)cc4F)c3c2F)C1 | ATCC 19420 | - | 0.5 µg/mL